Data as given in ChEMBL document CHEMBL1157366 (Antimicrob Agents Chemother, 2007).

Biological target: T1, Lethal factor (Bacillus anthracis) (UniProt P15917)
T1 sequence (whole entry): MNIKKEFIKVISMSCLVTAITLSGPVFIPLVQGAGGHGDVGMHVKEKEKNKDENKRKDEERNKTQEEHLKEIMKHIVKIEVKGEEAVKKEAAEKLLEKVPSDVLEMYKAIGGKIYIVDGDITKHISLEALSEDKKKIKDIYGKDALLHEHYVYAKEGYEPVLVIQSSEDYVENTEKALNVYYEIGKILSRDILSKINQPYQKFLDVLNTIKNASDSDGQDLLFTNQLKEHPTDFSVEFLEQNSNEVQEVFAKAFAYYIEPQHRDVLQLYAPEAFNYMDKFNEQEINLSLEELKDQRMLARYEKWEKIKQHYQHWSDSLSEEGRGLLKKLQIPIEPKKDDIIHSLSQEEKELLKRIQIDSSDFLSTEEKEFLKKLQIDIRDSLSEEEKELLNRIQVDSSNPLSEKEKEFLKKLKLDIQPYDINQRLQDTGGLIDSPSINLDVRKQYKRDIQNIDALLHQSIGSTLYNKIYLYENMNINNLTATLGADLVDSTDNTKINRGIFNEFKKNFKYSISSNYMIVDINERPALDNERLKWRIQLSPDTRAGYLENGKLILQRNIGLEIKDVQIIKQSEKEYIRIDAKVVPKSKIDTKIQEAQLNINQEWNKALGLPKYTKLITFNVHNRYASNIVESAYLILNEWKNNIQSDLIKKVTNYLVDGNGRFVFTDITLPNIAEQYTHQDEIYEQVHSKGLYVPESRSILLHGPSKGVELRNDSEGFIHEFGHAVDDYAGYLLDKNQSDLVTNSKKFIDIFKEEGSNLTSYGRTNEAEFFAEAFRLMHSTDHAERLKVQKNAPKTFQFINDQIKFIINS
Experiment: Protection against Bacillus anthracis lethal toxin-mediated cytotoxicity in mouse RAW264.7 cells assessed as change in viability at 0.125 to 12.5 uM relative to toxin-treated control
Format: cell-based

| Compound | fold change (FC) |
| --- | --- |
| CC(C)COCC(CN(Cc1ccccc1)c1ccccc1)N1CCCC1 (centres undefined) [BEPRIDIL] | 8.8 |
| CCCCCCCCCCCCC/C=C/[C@@H](O)[C@H](CO)N(C)C | 6.4 |
| CN(C)CCCn1cc(C2=C(c3c[nH]c4ccccc34)C(=O)NC2=O)c2ccccc21 | 6.7 |
| C[S+]([O-])c1ccc(-c2nc(-c3ccc(F)cc3)c(-c3ccncc3)[nH]2)cc1 (centres undefined) | 4.3 |
| CC1=C(C(=O)OC(C)C)[C@@H](c2cccc3nonc23)C([N+](=O)[O-])=C(C)N1 | 2.8 |
| Oc1ccc(-c2nc(-c3ccc(F)cc3)c(-c3ccncc3)[nH]2)cc1 | 4.2 |
| COC(=O)C1=C(C)NC(C)=C(C(=O)OCCN(C)Cc2ccccc2)C1c1cccc([N+](=O)[O-])c1 (centres undefined) | 5.6 |
| O=S(=O)(c1cccc2c(Cl)cccc12)N1CCCNCC1 | 2.8 |
| CN(C(=O)Cc1ccc(Cl)c(Cl)c1)C1CCCCC1N1CCCC1 (centres undefined) | 5.2 |
